Results reported in article PMC10813298, “Evidence of Guanidines Potential against Leishmania (Viannia) braziliensis: Exploring In Vitro Effectiveness, Toxicities and of Innate Immunity Response Effects” (Biomolecules, 2023).

Assays:
Assay type in all cases: cell-based, Leishmania (Viannia) braziliensis
[1] = system: L. (V.) braziliensis promastigotes; experiment: Antileishmanial activity on promastigotes (MTT, 72 h); details: for SI Promastigotes: SI = CC50/IC50
Description: Leishmania (Viannia) braziliensis (MHOM/BR/1975/M2903) was utilized in this study. The promastigote forms of these parasites were maintained in vitro in Schneider’s insect medium pH 7.2, supplemented with 20% fetal bovine serum (FBS) and 1% antibiotic solution (100 U/mL penicillin and 100 μg/mL streptomycin) at a temperature of 26 ± 1 °C in a Biochemical Oxygen Demand (BOD) incubator (Eletrolab EL202, São Paulo, Brazil), with regular aeration and weekly subculturing.
(§1) Assessment of antileishmanial activity against promastigote and amastigote axenic forms of parasites followed the method described by Rodrigues et al. and involved the following steps: L. (V.) braziliensis parasites were cultured in 96-well plates at a concentration of 1 × 10^6 parasites per well. Each well contained 100 μL of supplemented Schneider medium. Serial concentrations of the test substances, ranging from 50 to 1.56 μmol/L, were prepared. Reference drugs, meglumine antimoniate (20 to 40,000 μmol/L) and amphotericin B (0.031 to 2 μmol/L) were also prepared. These concentrations were used to assess the effects of the test substances in comparison to reference drugs. The plates were incubated in a BOD incubator at 26 °C for 72 h. After the 72 h incubation period, 10 μL of MTT (5 mg/mL) was added to each well. The plates were then incubated for an additional 4 h. At the end of the 4 h incubation, formazan crystals formed by the reduction of the MTT salt were solubilized by adding 50 μL of a 10% (w/v) sodium dodecyl sulfate (SDS) solution in distilled water. Absorbance was measured using a microplate reader at a wavelength of 540 nm (Biosystems ELx800 model, Curitiba, PR, Brazil). This measurement quantified the metabolic activity of the parasites, which is indicative of their viability and proliferation. Schneider medium containing 0.2% DMSO was used as a negative control in the tests.
The different mean concentrations for promastigotes (IC50) and macrophages (CC50) were calculated using nonlinear regression. For comparisons between groups, ANOVA analysis of variance was performed followed by Tukey’s test in a statistical program, taking the p-value < 0.05 as the maximum level of statistical significance.

[2] = system: L. (V.) braziliensis axenic amastigotes; experiment: Antileishmanial activity on axenic amastigotes (MTT, 72 h); details: SI = CC50/EC50
Description: In vitro amastigogenesis was performed by transformation from promastigotes at the stationary phase of growth to obtention axenic amastigotes. This process involved altering the culture conditions to Schneider’s medium with a pH of 5.5, supplementing them with 5% FBS, and incubating them at a temperature of 32 °C [17].
as §1

[3] = system: L. (V.) braziliensis intramacrophage amastigotes; experiment: Treatment of RAW 264.7 macrophages infected with L. (V.) braziliensis (intramacrophage amastigotes); details: for SI Intramacrophage Amastigotes: SI = CC50/EC50
Description: RAW 264.7 macrophages (1 × 10^6 cells/mL) were seeded in 24-well plates containing sterile glass slides, and approximately 500 μL of supplemented DMEM medium was added. The plates were then incubated at 37 °C with 5% CO2 for 4 h to facilitate cell adhesion. Following the adhesion period, promastigotes (1 × 10^7) in the stationary growth phase were introduced into the wells for infection. The plates were then incubated for an additional 4 h to allow infection to take place. Afterward, the medium was carefully removed, and the wells were washed three times with PBS to eliminate any nonadherent cells. Fresh medium containing serial concentrations of the test substances, ranging from 0.78 to 25 μmol/L, was added to the wells. Additionally, a range of concentrations of glucantime (25 to 800 μmol/L) was included for comparison. The treatment was carried out for 72 h in an incubator at 37 °C with 5% CO2. At the end of the 72 h treatment period, the glass lamina was removed from each well and stained using rapid panoptic stain (Laborklin®, Curitiba, Paraná, Brazil). The stained samples were mounted on permanent slides using Entelan® (Sigma-Aldrich, St. Louis, MO, USA), and antileishmanial activity was assessed by measuring the infection rate and counting the number of amastigotes per macrophage. Quantification was performed using light microscopy at a magnification of 1000×, and a total of 300 macrophages per lamina were evaluated. As a negative control, half DMEM containing 0.2% DMSO was used.

Molecule	SI Promastigotes [1]	SI Axenic Amastigotes [2]	SI Intramacrophage Amastigotes [3]	higher safety margin in relation to macrophages than meglumine antimoniate ([3]; ratio of selectivity index values)	SI (margin of safety), summary statement for reference drugs ([1]; all parasite forms)
O=C(/N=C(/NCc1ccccc1)Nc1ccc(I)cc1)c1ccccc1 [LQOF-G7, (Z)-N-benzoyl-N-benzyl-N-(4-iodophenyl)guanidine]	25.4	30.0	22.2		
C[C@@H]1[C@H](O)[C@@H](C)/C=C/C=C/C=C/C=C/C=C/C=C/C=C/[C@H](O[C@@H]2O[C@H](C)[C@@H](O)[C@H](N)[C@@H]2O)C[C@@H]2O[C@](O)(C[C@@H](O)C[C@@H](O)[C@H](O)CC[C@@H](O)C[C@@H](O)CC(=O)O[C@H]1C)C[C@H](O)[C@H]2C(=O)O [Amphotericin B, reference compound]	2.0	1.4	1.6		
O=C(/N=C(/NCc1ccc(Cl)cc1Cl)Nc1ccc(Br)cc1)c1ccccc1 [LQOF-G32, (Z)-N-benzoyl-N-(2,4-di-chlorobenzyl)-N-(4-bromophenyl)guanidine]	16.0				
O=C(/N=C(/NCc1ccccc1)Nc1ccc(Br)cc1)c1ccccc1 [LQOF-G2, (Z)-N-benzoyl-N-benzyl-N-(4-bromophenyl)guanidine]	30.4	32.4	38.9		
O=C(/N=C(/NCc1ccccc1)Nc1ccc([N+](=O)[O-])cc1)c1ccccc1 [LQOF-G1, (Z)-N-benzoyl-N-benzyl-N-(4-nitrophenyl)guanidine]	31.9	34.5	40.3	21.56 fold	
CC(C)(C)c1ccc(N/C(=N\C(=O)c2ccccc2)NCc2ccccc2)cc1 [LQOF-G6, (Z)-N-benzoyl-N-benzyl-N-(4-tert-butylphenyl)guanidine]	26.0	35.6	39.5		
O=C(/N=C(/NCc1ccccc1)Nc1ccccc1Br)c1ccccc1 [LQOF-G35]	8.9				
Meglumine antimoniate [Meglumine At, reference compound]	0.04				≤ 2.0
